Test system: exotoxin A (ETA) of Pseudomonas aeruginosa
Assay: Exotoxin A (ETA) cell toxicity
Details: single drug treatment

O=C([O-])CCCc1ccccc1.[Na+] [PBA, sodium 4-phenylbutyrate]
resistance to exotoxin A (ETA): weak drug-induced resistance

Source: US9205068B2 (priority 2008, dated 2015)
